Reference: BindingDB's records for doi:10.1021/jm970374b (1998)
pIC50: −log10 of the molar value.

Target: Neuraminidase (Influenza A virus (strain A/Singapore/1/1957 H2N2), UniProt Q6XUE4)

| Compound | pIC50 |
| --- | --- |
| CC(=O)N[C@@H]1[C@@H](N)C=C(C(=O)O)O[C@H]1C(=O)N(C)C [(2R,3R,4S)-4-amino-2-(dimethylcarbamoyl)-3-acetamido-3,4-dihydro-2H-pyran-6-carboxylic acid] | 5.62 |
| CCCCN(CCC)C(=O)[C@@H]1OC(C(=O)O)=C[C@H](N)[C@H]1NC(C)=O [(2R,3R,4S)-4-amino-2-[butyl(propyl)carbamoyl]-3-acetamido-3,4-dihydro-2H-pyran-6-carboxylic acid] | 8.40 |
| CCCCCCCCCN(CCC)C(=O)[C@@H]1OC(C(=O)O)=C[C@H](N)[C@H]1NC(C)=O [(2R,3R,4S)-4-amino-3-acetamido-2-[nonyl(propyl)carbamoyl]-3,4-dihydro-2H-pyran-6-carboxylic acid] | 7.64 |
